{"source": "paper PMC10746170", "tested_on": "His6-GacA", "assay": "EMSA", "conditions": "4-12 uM GacA, 20 mM acetyl phosphate, abolished by unlabeled DNA, 20 mM Tris pH 8.0, 150 mM NaCl, 10 mM EDTA, 100 ug/mL BSA, 10% glycerin, 1 mM DTT, ~10 nM probe, 20 min, room temperature, 6% native PAGE, recombinant protein, residues 1-211, protein details: His6, label: IR700 (5' end of forward primer), probe letters rebuilt from the primers and the genome", "data": [{"sequence": "AAAATCGCCTATTAAAAGTCTCTTTATGTAAATTTTGAATGAGCTTCATTTGTATAATCAATAATAATTCTCAAAAAAATTTTTCAAGCATAAATAATTGATTTTAAACAAAATAATTTAGATAAATAACATACATATAACATAAAAATATAAAAGCAAAAACCTTATAAAAACATATAAACATATGATTTTCATTAAAAAATAAAGAAAACTCCAAATATCTGCTAGTTAGTCTTTAGTCTTATTTTTTTTATGATTTTATGCTTTAATACAGCCACTTTTTTATTTGATCTTTCATTGTATCCCAATGAATGACTTGTACGTTGTACATATTTTGAATAGGCCTCACC (double strand) [pckG promoter probe]", "values": [{"measurement": "binding result", "result": "binds"}]}]}
